Experimental data published in article PMC12767058, “HERV‐K TM Subunit Elicits CD8^+ T Cell Anergy and Tumor Immune Evasion via Targeting CD3 Coreceptor ε in AML and PDAC” (Advanced Science, 2025).

Biological target: T1, purified recombinant glycosylated K-TM protein (human, UniProt Q69384 466-699, glycosylated)
T1 construct: K-TM subunit of HERV-K Env; One partner of the BLI was biotinylated and held on an SA chip; source: Hek293T cells (eukaryotic expression system), purified
T1 sequence: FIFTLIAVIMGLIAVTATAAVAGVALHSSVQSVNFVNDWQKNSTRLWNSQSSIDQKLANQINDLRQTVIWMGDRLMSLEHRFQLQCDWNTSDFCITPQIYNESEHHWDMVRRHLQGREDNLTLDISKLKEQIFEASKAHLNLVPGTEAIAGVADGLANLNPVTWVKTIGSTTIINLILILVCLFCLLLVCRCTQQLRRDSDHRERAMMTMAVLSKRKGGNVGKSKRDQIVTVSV
Experiment: BLI; Octet R8; one protein biotinylated and immobilised on an SA chip (which one is not said), the other in twofold dilutions in PBST; association 200 s, dissociation 300 s
Details: both partners purified

B1: glycosylated CD3ε protein (recombinant) (receptor)
chain: DGNEEMGGITQTPYKVSISGTTVILTCPQYPGSEILWQHNDKNIGGDEDDKNIGSDEDHLSLKEFSELEQSGYYVCYPRGSKPEDANFYLYLRARVCENCMEMDVMSVATIVIVDICITGGLLLLVYYWSKNRKAKAKPVTRGAGAGGRQRGQNKERPPPVPNPDYEPIRKGQRDLYSGLNQRRI
modifications: glycosylated
notes: CD3ε; nothing is said of the recombinant protein itself; source: eukaryotic expression system, purified
Question: Which Kd does the source give for B1 here?
Answer: 1.83 nM
